Reference: patent US6521797B1, “Oxime carboxylic acid derivative precursors” (Givaudan AG, priority 1998, dated 2003)

System: Axilla bacteria cultures
Assay: Activation with axilla bacteria cultures, headspace-GC and/or 18 member panel
Type: cell-based
Conditions: 0.1% precursor, 20 hours at 30° C., active axilla bacteria cultures

## 5-methyl-heptan-3-one O-(3-methyl-5-phenyl-oxycarbonyl) oxime [Example 3(b)]
  Fragrant decomposition products formed: oxime, and alcohol

## methyl-heptan-3-one O-(4-allyl-2-methoxy-phenoxycarbonyl) oxime [Example 3(a)]
  Fragrant decomposition products formed: oxime, and alcohol
